{"source": "patent US10681911B2", "about": "“Anthelminthic composition” (AgResearch Limited, priority 2016, dated 2020)", "system": "Haemonchus contortus L3", "test": "Field study, L3 numbers on pasture and in faeces", "conditions": "250 L/ha on 1 m2 plots", "note": "Only a part of the results on these compounds is given; other tests are left out."}
{"substance": "ammonium nitrate", "values": [{"measurement": "impact on L3 numbers in faeces", "setting": "FIG. 3a", "value": "Neither ammonium nitrate nor calcium hydroxide applied alone or in combination had any impact on L3 numbers in faeces"}, {"measurement": "impact on L3 numbers on pasture", "setting": "result in words, FIG. 3b, FIG. 4", "value": "neither ammonium nitrate nor calcium hydroxide applied alone had any impact on L3 numbers on pasture"}]}
